Measured values from several laboratories, pooled; numbers as filed in NIAID ChemDB.

All rows: enzyme or target tests; species: HIV-1; target: gp120; read-out: inhibition

Inhibition is in % at the dose shown (toxicity tests: loss of growth or viability).

SMILES	tested at	conditions	method	strain	value
CC1=C(CCC(=O)O)c2cc3nc(cc4[nH]c(cc5[nH]c(cc1n2)c(C)c5CCC(=O)O)c(CCC(=O)O)c4C)C(CCC(=O)O)=C3C	60 µg/mL	-	-	-	8.5%
O=C(O[C@@H]1Cc2c(O)cc(O)cc2O[C@@H]1c1cc(O)c(O)c(O)c1-c1c([C@H]2Oc3cc(O)cc(O)c3C[C@H]2OC(=O)c2cc(O)c(O)c(O)c2)cc(O)c(O)c1O)c1cc(O)c(O)c(O)c1	20 µM	-	ELISA	-	1.2%
O=S(=O)(O)c1cc(N=C=S)ccc1/C=C/c1ccc(N=C=S)cc1S(=O)(=O)O	10 µM	-	binding	-	0%
O=C(O[C@@H]1Cc2c(O)cc(O)cc2O[C@@H]1c1cc(O)c(O)c(O)c1)c1cc(O)c(O)c(O)c1	20 µM	-	ELISA	-	0.8%
C1=Cc2nc1c(-c1ccccc1)c1ccc([nH]1)c(-c1ccccc1)c1nc(c(-c3ccccc3)c3ccc([nH]3)c2-c2ccccc2)C=C1	60 µg/mL	-	-	-	0%
O=S(=O)(O)c1ccc(NS(=O)(=O)c2ccc(-c3ccc(S(=O)(=O)Nc4ccc(S(=O)(=O)O)c5cccc(S(=O)(=O)O)c45)cc3)cc2)c2c(S(=O)(=O)O)cccc12	100 µg/mL	-	fluorescence	-	53%
O=S(=O)(O)c1c2ccccc2c(-c2c3nc(c(-c4c5ccccc5c(S(=O)(=O)O)c5ccccc45)c4ccc([nH]4)c(-c4c5ccccc5c(S(=O)(=O)O)c5ccccc45)c4nc(c(-c5c6ccccc6c(S(=O)(=O)O)c6ccccc56)c5ccc2[nH]5)C=C4)C=C3)c2ccccc12	50 µg/mL	-	ELISA	IIIB	100%
O=S(=O)(O)c1c2ccccc2c(-c2c3nc(c(-c4c5ccccc5c(S(=O)(=O)O)c5ccccc45)c4ccc([nH]4)c(-c4c5ccccc5c(S(=O)(=O)O)c5ccccc45)c4nc(c(-c5c6ccccc6c(S(=O)(=O)O)c6ccccc56)c5ccc2[nH]5)C=C4)C=C3)c2ccccc12	50 µg/mL	-	ELISA	IIIB	100%
C1=Cc2nc1c(-c1ccncc1)c1ccc([nH]1)c(-c1ccncc1)c1nc(c(-c3ccncc3)c3ccc([nH]3)c2-c2ccncc2)C=C1	60 µg/mL	-	-	-	88.2%
O=c1c(O)cc([C@H]2Oc3cc(O)cc(O)c3C[C@H]2O)cc2c([C@H]3Oc4cc(O)cc(O)c4C[C@H]3O)cc(O)c(O)c12	20 µM	-	ELISA	-	16%
C=Cc1c(C)c2cc3[nH]c(cc4nc(cc5nc(cc1[nH]2)C(C)=C5CCC(=O)O)C(CCC(=O)O)=C4C)c(C)c3C(C)O	60 µg/mL	-	-	-	83.7%
CC(C)(CS(=O)(=O)[O-])[NH2+]C(=O)C(CC(F)(OC(F)(F)C(F)(OC(F)(F)C(F)(OC(F)(F)C(F)(F)C(F)(F)F)C(F)(F)F)C(F)(F)F)C(F)(F)F)C(F)(OC(F)(F)C(F)(OC(F)(F)C(F)(OC(F)(F)C(F)(F)C(F)(F)F)C(F)(F)F)C(F)(F)F)C(F)(F)F	0.16 µg/mL	-	ELISA	-	38%
CCC1=C(C)/C(=C/c2[nH]c(Cc3[nH]c(/C=C4\NC(=O)C(C)=C4CC)c(C)c3CCC(=O)O)c(CCC(=O)O)c2C)NC1=O	60 µg/mL	-	-	-	0.9%
O=CC1OC(=O)c2cc(O)c(O)c(O)c2Oc2cc3c(c(O)c2O)-c2c(cc(O)c(O)c2O)C(=O)OCC2OC(OC(=O)c4cc(O)c(O)c(O)c4Oc4cc5c(c(O)c4O)-c4c(cc(O)c(O)c4O)C(=O)OC(C(O)COC5=O)C1OC(=O)c1cc(O)c(O)c(O)c1)C(OC(=O)c1cc(O)c(O)c(O)c1)C(OC(=O)c1cc(O)c(O)c(O)c1)C2OC3=O	0.78 µg/mL	-	binding	-	43%
C=Cc1c(C)c2cc3c(C=C)c(C)c(cc4nc(cc5nc(cc1[nH]2)C(C)=C5CCC(=O)O)C(CCC(=O)O)=C4C)n3C	60 µg/mL	-	-	-	77.2%
COC(=O)C(=O)N1CCC[C@@H]1C(=O)N[C@H](Cc1ccccc1)C(=O)OCc1ccccc1	500 µM	1% FBS	ELISA	-	27%
Cc1ncc(COP(=O)(O)O)c(C=O)c1O	100 µM	-	binding	-	0%
O=CC(O)C(OC(=O)c1cc(O)c(O)c(O)c1)C1OC(=O)c2cc(O)c(O)c(O)c2-c2c(cc(O)c(O)c2O)C(=O)OCC1O	1.56 µg/mL	-	binding	-	0.7%
C=Cc1c(C)c2cc3nc(cc4[nH]c(cc5nc(cc1[nH]2)C(C)=C5CO)c(C)c4CCC(=O)O)C(CCC(=O)O)=C3C	60 µg/mL	-	-	-	68.7%
C[C@@H]1CN(C(=O)c2ccccc2)CCN1C(=O)C(=O)c1c[nH]c2ccccc12	0.1 µM	-	ELISA	YU2	65%
Clc1ccc(CNc2ccccc2Cn2ccnc2)cc1	10 µg/mL	-	fluorescence	IIIB	95%
NOCc1c(F)cccc1Cl	0.8 µg/mL	-	ELISA	-	9.2%

The last 3 rows once more:

| SMILES | tested at | conditions | method | strain | value |
|---|---|---|---|---|---|
| C[C@@H]1CN(C(=O)c2ccccc2)CCN1C(=O)C(=O)c1c[nH]c2ccccc12 | 0.1 µM | - | ELISA | YU2 | 65% |
| Clc1ccc(CNc2ccccc2Cn2ccnc2)cc1 | 10 µg/mL | - | fluorescence | IIIB | 95% |
| NOCc1c(F)cccc1Cl | 0.8 µg/mL | - | ELISA | - | 9.2% |

An empty or dashed field is not shown. Rows are shuffled and stem from different studies.